Pooled drug test results. Numbers come from NIAID ChemDB, via PubChem.

Shared fields: tests in culture; species: Adenovirus; endpoint: EC50

ECn: concentration that inhibits the pathogen or its effect by n%. Conditions beyond the fields shown may differ between rows. Blank or dashed fields: not listed here.

smiles,strain or isolate,cells,method,value
C#C[C@H](CC(=O)O)NC(=O)CNC(=O)c1cccc(N=C(N)N)c1,TYPE 2,HeLa,-,>100 µM
CSc1nsc(C2CCCCC2)c1C#N,TYPE 2,HEP-2,plaque count,>50 µM
NCC(=O)N[C@@H](CCCN=C(N)N)C(=O)NCC(=O)N[C@@H](CCC(=O)O)C(=O)N[C@@H](CO)C(=O)N1CCC[C@H]1C(=O)O,TYPE 2,HUMAN 293/beta5,-,>2000 µM
COc1ccc(OC)c(/C=N/N=C(/N)NO)c1.Cc1ccc(S(=O)(=O)O)cc1,ATCC VR18 (TYPE 17),VERO,plaque count,>50 µM
O=C(O)CC(NC(=O)CNC(=O)c1cccc(NC2=NCC(O)CN2)c1)c1cc(Cl)cc(Cl)c1,TYPE 2,HUMAN 293/beta5,-,100 µM
COc1ccc(/C=N/N=C(/N)NO)c(OC)c1OC.Cc1ccc(S(=O)(=O)O)cc1,ATCC VR18 (TYPE 17),VERO,plaque count,>50 µM
Cc1ccc(S(=O)(=O)O)cc1.N/C(=N\N=C\c1cccc2c([N+](=O)[O-])cccc12)NO,WT 300 (TYPE 5),A549,plaque count,3.2 µM
Nc1ccn([C@H]2CC[C@@H](CO)O2)c(=O)n1,TYPE 2,HEP-2,-,3.95 µg/mL
NC(N)=Nc1cccc(C(=O)NCC(=O)NC(CC(=O)O)c2cc(Cl)cc(Cl)c2)c1,TYPE 2,HUMAN 293,-,100 µM
CSc1nsc(-c2ccc(Cl)cc2)c1C#N,TYPE 2,HEP-2,plaque count,>5 µM
CC(C)CS[C@@H]1C=C[C@H](n2cnc3c(N)ncnc32)C1,TYPE 1,A549,cytopathic effect,>100 µg/mL
CSc1nsc(-c2cccs2)c1C#N,TYPE 2,HEP-2,plaque count,>6 µM
COc1ccc(/C=N/N=C(\N)NO)cc1.Cc1ccc(S(=O)(=O)O)cc1,ATCC VR18 (TYPE 17),VERO,plaque count,>50 µM
COc1ccc(-c2cc(N3CCCCC3)no2)c(O)c1,ATCC VR10,VERO,plaque count,>364 µM
CSc1nsc(-c2cccc3ccccc23)c1C#N,TYPE 2,HEP-2,plaque count,>4 µM
O=C(O)CC(NC(=O)CNC(=O)c1cc(NC2=NCCN2)cc(C(F)(F)F)c1)c1cc(Cl)cc(Cl)c1O,TYPE 2,HUMAN 293/beta5,-,<100 µM
CCOc1ccc(-c2cc(N3CCCCC3)no2)c(O)c1,ATCC VR10,VERO,plaque count,>347 µM
CSc1nsc(-c2ccc(C)cc2)c1C#N,TYPE 2,HEP-2,plaque count,>18 µM
CN(C)c1cc(-c2ccc(O)cc2O)on1,ATCC VR10,VERO,plaque count,>227 µM
Nc1ncnc2c1ncn2[C@@H]1C[C@H](NC=O)[C@@H](O)[C@H]1O,TYPE 1,HFF,-,>100 µg/mL
COc1ccc(-c2cc(N(C)C)no2)c(O)c1,ATCC VR10,VERO,plaque count,>427 µM
CSc1nsc(-c2cccc(Cl)c2)c1C#N,TYPE 2,HEP-2,plaque count,>10 µM

For reference, 2 entries again:

| smiles | strain or isolate | cells | method | value |
|---|---|---|---|---|
| COc1ccc(-c2cc(N3CCCCC3)no2)c(O)c1 | ATCC VR10 | VERO | plaque count | >364 µM |
| NC(N)=Nc1cccc(C(=O)NCC(=O)NC(CC(=O)O)c2cc(Cl)cc(Cl)c2)c1 | TYPE 2 | HUMAN 293 | - | 100 µM |